# Deep mutational scan of the Zika virus protease

From the data files of Ni et al. 2025, doi:10.1038/s41467-025-63602-z.

Chain scanned (Zika virus MR766; NS2B from position 2 to 131, then the start of NS3):
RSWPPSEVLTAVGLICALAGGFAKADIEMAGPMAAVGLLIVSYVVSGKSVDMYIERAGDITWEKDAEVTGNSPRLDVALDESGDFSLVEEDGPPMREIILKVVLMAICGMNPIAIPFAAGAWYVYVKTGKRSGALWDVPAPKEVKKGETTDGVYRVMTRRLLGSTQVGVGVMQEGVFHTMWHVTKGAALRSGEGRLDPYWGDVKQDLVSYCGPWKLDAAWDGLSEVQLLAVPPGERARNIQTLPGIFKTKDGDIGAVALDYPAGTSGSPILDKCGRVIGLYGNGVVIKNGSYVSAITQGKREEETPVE

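Pools of virus carrying all single amino acid changes were selected for growth in Huh-7.5 cells. Sequencing of three replicate libraries (two for positions 207-308) was averaged into one effect per change.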

The number is log2 of the effect relative to wild type; negative values mean reduced growth, higher values better tolerance. A change reads original residue, position, new residue. This list holds changes to asparagine only.

T179N read -4.67. M180N read -4.92. W181N gave -4.37. H182N gave -3.14. V183N read -4.84.

T184N gave -5.69. With K185N the assay gave -5.72. With G186N the assay gave -4.22. With A187N the assay gave -4.29. For A188N the result was -5.07.

L189N gave -4.06. R190N gave -2.58. S191N read -1.37. With G192N the assay gave -3.40. For E193N the result was -0.27.

G194N read -5.66. R195N read -5.59. L196N read -5.03. For D197N the result was -0.64. P198N read -7.20.

With Y199N the assay gave -3.05. W200N read -5.91. G201N read -5.24. With D202N the assay gave -0.79. For V203N the result was -6.38.

K204N gave -6.49. For Q205N the result was -5.04. With D206N the assay gave -5.53. L207N read -7.04. V208N gave -7.52.

S209N read -5.76. For Y210N the result was -6.70. C211N gave 0.55. G212N gave -6.42. P213N read -2.55.

For W214N the result was -7.29. K215N read -7.08. L216N read -6.40. For D217N the result was -6.00. For A218N the result was -6.59.

A219N gave 1.02. W220N read -6.54. For D221N the result was -6.17.

Values above 0 are not proof of better growth: six high scorers were tested one by one, five grew less well than wild type and one about as well. Position 1 still belongs to NS2A. In the paper, -1 or higher counts as tolerated. Positions 1-103, 104-206 and 207-308 were made and measured as separate libraries.